Test results reported in publication PMC9914633 (International Journal of Environmental Research and Public …, 2023).

Test system: NCCc1c[nH]c2ccc(O)cc12
Experiment: purified protein
Conditions: acetyl-CoA 0.5 mM, 100 mM potassium phosphate pH 8.8, 30 °C, 30 min, GST fusion

xoSNAT3 (GST-xoSNAT3) (Xanthomonas oryzae pv. oryzae)
Km: 709.98 µM
